This note sets out measurements from patent publication US11376232B2, “Vidofludimus for use in the treatment or prevention of viral diseases” (Immunic AG, priority 2020, dated 2022).

Counter-ions that a name gives are not always drawn. Bounds are passed on as bounds.

Turning to `COc1cccc(-c2ccc(NC(=O)C3=C(C(=O)O)CCC3)c(F)c2)c1` [IMU-838, 1-cyclopentene-1-carboxylic acid, 2-(((3-fluoro-3′-methoxy(1,1′-biphenyl)-4-yl)amino)carbonyl)-, calcium salt (2:1)], the “reduction of infectivity (CCID50)” value with SARS-CoV-2 B.1.1.7 and with SARS-CoV-2 B.1.351 was greater than 3 log units in each case.
